## Structure probing of HIV-1 leader RNA with DMS

RNA: 5' end of the HIV-1 NL4-3 genome, made in vitro. Positions 1-437 read:
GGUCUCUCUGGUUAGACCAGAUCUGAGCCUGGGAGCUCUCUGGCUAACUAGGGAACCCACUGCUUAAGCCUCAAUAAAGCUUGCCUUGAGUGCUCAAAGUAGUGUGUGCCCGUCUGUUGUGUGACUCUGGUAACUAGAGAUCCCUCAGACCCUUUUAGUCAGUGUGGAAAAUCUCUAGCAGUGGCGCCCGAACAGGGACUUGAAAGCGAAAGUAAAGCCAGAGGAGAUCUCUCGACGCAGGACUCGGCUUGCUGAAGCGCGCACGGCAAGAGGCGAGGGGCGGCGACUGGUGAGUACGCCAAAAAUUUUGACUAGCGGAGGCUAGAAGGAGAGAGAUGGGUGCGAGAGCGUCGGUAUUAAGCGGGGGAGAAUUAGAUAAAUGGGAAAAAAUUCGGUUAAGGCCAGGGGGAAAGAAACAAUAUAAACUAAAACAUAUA

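Randomly mutated transcripts starting with one, two or three G (1G, 2G, 3G), capped or uncapped, were folded for 30 min at 37 °C. Monomer and dimer bands were cut from native gels after folding in high salt (300 mM KCl, 5 mM MgCl2) or low salt (40 mM KCl, 0.1 mM MgCl2). Gel slices were treated with 170 mM dimethyl sulfate for 15 min at 37 °C and read by mutational profiling against an ethanol control.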

Values are winsor-normalised DMS reactivities of A and C; higher means more reactive, usually unpaired. One numbering serves 1G, 2G and 3G. A position is written with its base.

position | domain | 1G capped high-salt monomer | 3G capped high-salt monomer
C60 | PolyA | 0.22 | 0.80
A371 | none | 0.95 | 0.97
A334 | AUG | 0.51 | 0.50
C188 | PBS | 0.07 | 0.06
C267 | SL1 | 0.19 | 0.14
C231 | CU | 0.14 | 0.21
A276 | SL1 | 0.94 | 1.09
C146 | PBS | 0.13 | 0.13
A210 | PBS | 0.59 | 0.56
A414 | none | 0.49 | 0.48
A435 | none | 0.51 | 0.52
C29 | TAR | 0.11 | 0.09
C72 | PolyA | 0.12 | 0.11
C262 | SL1 | 0.41 | 0.37
A239 | none | 0.58 | 0.58
A330 | none | 0.95 | 0.96
C248 | SL1 | 0.06 | 0.05
C111 | U5 | 0.33 | 0.29
C207 | PBS | 0.47 | 0.44
C236 | none | 0.53 | 0.54
C432 | none | 0.94 | 0.96
A433 | none | 0.75 | 0.79
C233 | CU | 0.26 | 0.34
C134 | PBS | 0.16 | 0.16
C193 | PBS | 0.82 | 0.95
A132 | PBS | 0.54 | 0.53
C252 | SL1 | 0.16 | 0.26
C36 | TAR | 0.04 | 0.02
A235 | none | 0.71 | 0.64
A380 | none | 0.85 | 0.85
A211 | PBS | 0.41 | 0.42
A256 | SL1 | 0.86 | 0.82
C187 | PBS | 0.04 | 0.02
C84 | PolyA | 0.58 | 0.21
C219 | antiPAS | 0.04 | 0.03
A242 | none | 0.92 | 0.87
C245 | SL1 | 0.19 | 0.31
A429 | none | 0.73 | 0.76
A204 | PBS | 0.69 | 0.70
A149 | PBS | 0.11 | 0.08
A412 | none | 0.54 | 0.53
A424 | none | 0.34 | 0.34
A263 | SL1 | 0.22 | 0.21
A327 | none | 1.00 | 1.01
A177 | PBS | 0.25 | 0.22
A379 | none | 0.60 | 0.60
C48 | TAR | 0.07 | 0.02
A390 | none | 0.94 | 0.97

The last 2 entries again:

| position | domain | 1G capped high-salt monomer | 3G capped high-salt monomer |
|---|---|---|---|
| C48 | TAR | 0.07 | 0.02 |
| A390 | none | 0.94 | 0.97 |

Reference: Ye et al. 2022, doi:10.1038/s41594-022-00746-2.